Test results: ChEMBL document CHEMBL1142214, “Synergistic interaction between phenothiazines and antimicrobial agents against Burkholderia pseudomallei” (2007)

Experiments:
Format in all cases: functional
[1] = tested on: Burkholderia pseudomallei; experiment: Antimicrobial activity against Burkholderia pseudomallei KHW in presence of 1000 uM omeprazole
[2] = tested on: Burkholderia pseudomallei; experiment: Antimicrobial activity against Burkholderia pseudomallei KHW in presence of 500 uM promazine
[3] = tested on: Burkholderia pseudomallei; experiment: Antimicrobial activity against Burkholderia pseudomallei KHW in presence of 250 uM chlorpromazine

Measured: MIC

C[C@H]1COc2c(N3CCN(C)CC3)c(F)cc3c(=O)c(C(=O)O)cn1c23.C[C@H]1COc2c(N3CCN(C)CC3)c(F)cc3c(=O)c(C(=O)O)cn1c23.O [LEVOFLOXACIN]
1 µg/mL: [1] | [2] | [3]
